{"source": "paper PMC5723134", "tested_on": "T1, His6-LrhA (Pantoea stewartii subsp. stewartii DC283)", "T1 sequence (looked up)": "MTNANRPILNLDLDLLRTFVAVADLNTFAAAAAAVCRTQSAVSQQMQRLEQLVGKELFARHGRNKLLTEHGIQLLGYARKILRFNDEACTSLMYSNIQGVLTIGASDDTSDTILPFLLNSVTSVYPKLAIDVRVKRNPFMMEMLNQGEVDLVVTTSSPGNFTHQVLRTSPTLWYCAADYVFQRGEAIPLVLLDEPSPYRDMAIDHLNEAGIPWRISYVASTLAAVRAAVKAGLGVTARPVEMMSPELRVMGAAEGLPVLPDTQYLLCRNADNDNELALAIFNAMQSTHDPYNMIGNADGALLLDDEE", "assay": "EMSA", "settings": "5 nM DNA, 10 mM Tris-HCl (pH not given), 50 mM NaCl, 1 mM MgCl2, 0.5 mM EDTA, 0.5 mM DTT, 10% glycerol, 50 ug/ml poly(dI-dC), 150 ug/ml BSA, 5 nM FAM-DNA, room temperature 1 h, recombinant protein, residues 1-307, protein details: N-terminal His6 (pET28a), label: 5'-FAM (reverse primer), probe letters rebuilt from the primers and the genome", "note": "Where a protein sequence is shown, tags need not be part of it. The exact form of at least one protein or probe is not confirmed.", "data": [{"sequence": "ACTAGTCATAGCGTAAGTAGGGTGTGACAGCCGTGCATTAATCGTTAATACGGTTAACTATTTTATCTCTAAGGACTTTTTTTCGTTTTTTGAAGCCAGGCTAAAAAACAGAGAGCATCTTTAGTACAGGTTTACCTGTCTAAAAGTCTTATTCACTGTTTTTGGGCGGGTTGAATGCGCACAGGACGTGCAGGACGTGTTGGAAAATGCGATCCGATCAAAATTTGCAATGCTTTTCATAAAAACATTTCCATTTTGCGGTCAAAAATGATTAAGTATAATTTACTATTTGATGTGATTAAACGCGATACAGCGTGTGTGTATGACAGACCCATTTACCCCGGCGTAATGACTTTTTTGGGGTTGAAAAAGACAACTACACAGCTTCCCGCAATTTTGCATCCAGTGCCTTCGGTACAGAAGTTGTCTCTGTCTTCAGGTGACGGCTTCCGTGTTTTACAGGAACGTGCCGTGCGCCTTCGTAAGTAAATTTTATGTCGGCCCTGTGTTGGGACGGCATGAAGCATCATTACCGCTTATCGCTTTGATAAGCTTGTAATAACACCAGGATAGTAGTTCTTAAAACTC (double strand) [PlrhA]", "values": [{"measurement": "binding result", "setting": "LrhA 0-800 nM", "result": "binds"}]}, {"sequence": "TAGCAACACCGGCAGCTAACAGAAAAAGCTTGAATTTCATAACCATTCCTTACTAATTATTTAGGGTCAGTGCTTTTTCACCTGATGGTATAATGCAAAAACCTCGAAAAAATAACATTAAATCGCCAGATAACAGCAACCTGCCGTCACTCTCTCCAGCGCCCCAGAAAAAAGGGGTGCTGATTTATATTAGTTTTTTTTACTATACATCAGCGCAGGCAAAGTGGCGAAACTCATCGATAAATTTTTTATTATTTTGTTACATTGCCTGCCGCAACGGCGAATCGACAGGCGATCACGGGCTGAAGACGCAGAGCCGCAGAACTGTTTTGCCTGTCTGTGGTGTCGCTGTTATGTCTCCGTCAGTTTGGTATGAGAAAGAAGCGCATGCGGGATGTGAGGCTGAAAAGCGGCAGATGCGCTATCTTTGAATAGCTGCTGTCTGCCCGTGCGGTAAAGGTCGTCAGTGCAGGCATAACGTTGTGGTCAGGCAGCAAAACGGCGGCTCATATGCCAGCTAAAAGAATTGATTGAGCCGGACGCTTGCAGGTATCGGAAAGCGCTATTAAAAAAGCCTAATTTAGTCGTTTCCCGCGCCGATAAAAGGGTAACAAGGCGAAAATTCCTTTTCATCATCTCTTTAACAGCGGCGTGTTCGGCGCTATTCGGAAATC (double strand) [PCKS_0458]", "values": [{"measurement": "binding result", "setting": "LrhA 0-1000 nM", "result": "binds"}]}, {"sequence": "CGGTGTTTCACGCGATAGTGTCCATTAAAAAATGATGGACACTATTTTCCCGGAACCGGAGCCCGCTGCACAGACGGTTTAAATGTGACGCTTACAATCAGCCGCCCCCTGCGTTCTGTTGTGAAGACGCTCTTTCCGAGATCGTCCCGTAACGCCTGCCAGTAACAGGCCACAGTGTGGCACTAACACAAACTCACCACAGTAATCCCTGCCGAGCCGTTCGCCCTCATGAGAAAACATTAATTAAATTTACCATGAATACAGTAAGGATAATAAAGTTTTATGACACTATAAATAAGACCAGCCTCCCTTTCCTCGCCTGGATTTTATGAGAAAAATCACACTTTAACGGCCTTTAAAGTCACTTAATTTTCCATGAAAACTAAGGTGATAGAGAAAAATCAGGATCATTTAATTTATAAACACCTTTAAATCAATAAGATGAAAGATTGCGGATTAAAAACAGCGATAAAACATAAAAATAACTTAATGATTACCATTTGCTGTGATATACATTAGAAAACTTTAATATTTAATGATGTTTTCTGGTGGGGAGAGTGATATGAGTCACG (double strand) [PCKS_5211]", "values": [{"measurement": "binding result", "setting": "LrhA 0-1000 nM", "result": "binds"}]}, {"sequence": "GTTAGCGACCCTCACCAATTTGTTATCCGTTTAAATCAACGATGAATTACGCGTTGCGGTACGAGAAGATTTCCAAAGCGCTTTTTTTTATTCTGCTGATGCAGCGTGGCAACGGGCAAACGCCCGTAAAAGTCTTCTTCCTTGACCCGTTCTGCAAAATTTTTTCTTACTCTGGCCCCACACCTGGCGTCGAATCCACATCGGGTATTGATGTAAAGTCGTACCGGCGCGAAACACCGTTTTTGGGAGCAATGTCACTATCGCTGAAAACCCAGAGTTTTCTGATAGGACAAGTCTTAAAAACATTTGTTTCACGAAAGTGTAAGGCTGAAGAGTGAGTTGACAATGCCGGAAAAAACATTTTCTGACAAGAAAAATCACACAATATTTTTTCTTGTTTAATTTCAATGCATTGCCGATTTTATCACCAAAACAACCCTGTCGATGACTCTGTGTACCGCCCGACTAAAATACGCGATGCGCGGTTTAATAAGAATTATTTTAAGACTTATCGCACATTTATCAGAATATCCTTAGTTGATTTCTGGAAAATATGGTTTGAAAAATGCCCGGATAGTTGTGAATTTCCAATTC (double strand) [PrcsA]", "values": [{"measurement": "binding result", "setting": "LrhA 0-1000 nM", "result": "binds"}]}]}
